A mixed list of measured activities; the numbers were collected in NIAID ChemDB.

All rows: tests on isolated targets; agent: HIV-1; target: Protease; endpoint: Ki

An empty or dashed field is not shown.

| structure | strain or isolate | mutations | read by | value |
|---|---|---|---|---|
| CC(C)(C)OC(=O)N[C@@H](Cc1ccccc1)[C@H](O)CNC[C@@H](O)[C@H](Cc1ccccc1)NC(=O)OC(C)(C)C | - | - | substrate cleavage | 0.1 µM |
| CC(C)[C@H](NC(=O)c1ccccn1)C(=O)N[C@@H](Cc1ccccc1)[C@H](O)[C@H](O)[C@H](Cc1ccccc1)NC(=O)[C@@H](NC(=O)c1ccccn1)C(C)C | - | - | substrate cleavage | 0.0048 µM |
| Cc1ccc(S(=O)(=O)N(CC(C)C)[C@@H](CCCCNC(=O)[C@H](CC2C=Nc3ccccc32)NS(=O)(=O)c2ccccc2)C(=O)OCC(O)CO)cc1 | - | - | FRET | >0.3 µM |
| Nc1cccc(CN2C(=O)N(Cc3cccc(-c4ccn[nH]4)c3)[C@H](Cc3ccccc3)[C@H](O)[C@@H](O)[C@H]2Cc2ccccc2)c1 | RF | - | - | 0.000035 µM |
| CCC(c1cccc(NS(=O)(=O)c2ccc(C#N)cn2)c1)c1c(O)c2c(oc1=O)CCCCCC2 | - | - | substrate cleavage | 0.000007 µM |
| CC(C)(C)OC(=O)N[C@@H](COc1ccccc1)[C@@H](O)[C@H](O)[C@H](COc1ccccc1)NC(=O)OC(C)(C)C | - | - | absorbance | 0.3 µM |
| Cc1nc(COc2ccc(C[C@H](NC(=O)O[C@H]3CO[C@H]4OCC[C@H]43)[C@H](O)CN(CC(C)C)S(=O)(=O)c3ccc4c(c3)OCO4)cc2)cs1 | HXB2 | - | absorbance | 0.000004 µM |
| CC[C@H](C)[C@H](NC(=O)[C@@H]1CCCN1C(=O)[C@H](Cc1ccccc1)NC(=O)[C@H](CC(N)=O)NC(=O)[C@H](CCC(N)=O)NC(=O)C=O)C(=O)N[C@H](C(N)=O)C(C)C | - | - | absorbance | 90 µM |
| O=C1N(Cc2cccc(-c3cn[nH]c3)c2)[C@H](Cc2ccccc2)[C@H](O)[C@@H](O)[C@@H](Cc2ccccc2)N1Cc1cccc(-c2cn[nH]c2)c1 | RF | - | - | 0.00062 µM |
| CCC(C1=C(O)C2CCCCC2OC1=O)c1ccccc1 | - | - | substrate cleavage | 0.67 µM |
| CC[C@H](C)[C@H](NC(=O)[C@@H]1CCCN1C(=O)C=O)C(=O)N[C@H](C(N)=O)C(C)C | - | - | absorbance | 520 µM |
| CNC(=O)[C@@H](NC(=O)[C@H](OCc1ccccc1)[C@H](O)[C@@H](O)[C@@H](OCc1ccccc1)C(=O)N[C@H]1c2ccccc2C[C@H]1O)C(C)C | - | PR-I84V L90M | - | 0.001 µM |
| O=C1N(Cc2cccc(-c3cnc[nH]3)c2)[C@H](Cc2ccccc2)[C@H](O)[C@@H](O)[C@@H](Cc2ccccc2)N1Cc1cccc(-c2cnc[nH]2)c1 | RF | - | - | 0.00019 µM |
| COC(=O)N[C@@H]1CO[C@@H]2C[C@H](OC(=O)N[C@@H](Cc3ccccc3)[C@H](O)CN(CC(C)C)S(=O)(=O)c3ccc(OC)cc3)C[C@H]12 | - | - | substrate cleavage / fluorescence | 0.0395 µM |
| CCC(c1cccc(NS(=O)(=O)c2ccc(C#N)cn2)c1)c1c(O)c2c(oc1=O)CCCCC2 | - | - | substrate cleavage | 0.000018 µM |
| O=C(N[C@@H](Cc1ccccc1)[C@@H](O)CN(Cc1ccc(-c2ccccn2)cc1)NC(=O)[C@@H]1CN(c2ccccc2)C(=O)O1)[C@@H]1CN(c2ccccc2)C(=O)O1 | - | - | FRET | 0.3 µM |
| CC(C)[C@H](NC(=O)N(C)Cc1ccccn1)C(=O)N[C@@H](Cc1ccccc1)[C@H](O)[C@H](O)[C@H](Cc1ccccc1)NC(=O)[C@@H](NC(=O)N(C)Cc1ccccn1)C(C)C | - | - | fluorescence | 0.000084 µM |
| CNC(=O)CN1[C@H](COc2ccccc2)[C@H](O)[C@@H](O)[C@@H](COc2ccccc2)N(CC(=O)NC)S1(=O)=O | - | PR-I84V | - | 83 µM |
| Cc1cccc(C)c1OCC(=O)N[C@@H](Cc1ccccc1)[C@@H](O)C[C@H](Cc1ccccc1)NC(=O)[C@@H]1CN(c2ccccc2)C(=O)O1 | - | Q7K | substrate cleavage / FRET | 0.00728 µM |
| CC(C)(C)OC(=O)N[C@@H](COc1ccccc1)C[C@H](O)[C@H](COc1ccccc1)NC(=O)OC(C)(C)C | - | - | absorbance | 0.052 µM |
| O=C(N[C@@H](Cc1ccccc1)[C@@H](O)C[C@H](Cc1ccccc1)NC(=O)[C@@H]1CN(c2cccc(C(F)(F)F)c2)C(=O)O1)OCc1cccnc1 | - | - | FRET | 0.04109 µM |
| C/C(=N\O)c1cccc(CN2C(=O)N(Cc3cccc(/C(C)=N/O)c3)[C@H](Cc3ccccc3)[C@H](O)[C@@H](O)[C@H]2Cc2ccccc2)c1 | RF | - | fluorescence | 0.000018 µM |
| O=C(Nc1cccc(C(c2c(O)c3c(oc2=O)CCCCCC3)C2CC2)c1)Oc1ccccc1 | - | - | substrate cleavage | 0.66 µM |
| CCC(c1cccc(NS(=O)(=O)c2ccc(C#N)cn2)c1)c1c(O)c2c(oc1=O)CCCC2 | - | - | substrate cleavage | 0.000065 µM |
| O=S1(=O)N(Cc2cccc(I)c2)[C@H](COc2ccccc2)[C@H](O)[C@@H](O)[C@@H](COc2ccccc2)N1Cc1cccc(I)c1 | - | PR-I84V | - | 17 µM |
| CC(C)[C@H](NC(=O)N(C)Cc1ccccn1)C(=O)N[C@@H](Cc1ccccc1)[C@H](O)[C@@H](O)[C@H](Cc1ccccc1)NC(=O)[C@@H](NC(=O)N(C)Cc1ccccn1)C(C)C | - | PR-R8Q | fluorescence | 0.0072 µM |
| Cc1ccc(S(=O)(=O)N(CC(C)C)[C@@H](CCCCNC(=O)CNCc2ccccc2)C(=O)O)cc1 | - | - | FRET | >0.3 µM |
| COC(=O)c1ccc(CN2[C@H](COc3ccccc3)[C@H](O)[C@@H](O)[C@@H](COc3ccccc3)N(Cc3ccc(C(=O)OC)cc3)S2(=O)=O)cc1 | - | PR-I84V | - | 1.5 µM |
| O=C1N(Cc2cccc(C(=O)C(F)(F)F)c2)[C@H](Cc2ccccc2)[C@H](O)[C@@H](O)[C@@H](Cc2ccccc2)N1Cc1cccc(C(=O)C(F)(F)F)c1 | RF | - | - | 0.000037 µM |
| COC(=O)N[C@H](C(=O)N[C@@H](Cc1ccccc1)[C@@H](O)CN(Cc1ccc(-c2ccccn2)cc1)NC(=O)[C@@H](NC(=O)OC)C(C)(C)C)C(C)(C)C | WT | - | FRET | 0.000046 µM |
| O=S1(=O)N(Cc2ccc(CO)cc2)[C@H](COc2ccccc2)[C@H](O)[C@@H](O)[C@@H](COc2ccccc2)N1Cc1ccc(CO)cc1 | - | PR-V82A | - | 0.0025 µM |

Repeating the final 2 entries:

COC(=O)N[C@H](C(=O)N[C@@H](Cc1ccccc1)[C@@H](O)CN(Cc1ccc(-c2ccccn2)cc1)NC(=O)[C@@H](NC(=O)OC)C(C)(C)C)C(C)(C)C ; strain or isolate: WT ; read by: FRET ; value: 0.000046 µM
O=S1(=O)N(Cc2ccc(CO)cc2)[C@H](COc2ccccc2)[C@H](O)[C@@H](O)[C@@H](COc2ccccc2)N1Cc1ccc(CO)cc1 ; mutations: PR-V82A ; value: 0.0025 µM

Conditions beyond the fields shown may differ between rows.